# Experimental data reported in US20090060872A1, “PHOSPHADIAZINE HCV […]” (published 2009).
# Sequences of proteins named here, by UniProt entry; tags and fusion partners are left off. Residues count along the entry.
# UniProt O92972, 2420-3010 limits assumed: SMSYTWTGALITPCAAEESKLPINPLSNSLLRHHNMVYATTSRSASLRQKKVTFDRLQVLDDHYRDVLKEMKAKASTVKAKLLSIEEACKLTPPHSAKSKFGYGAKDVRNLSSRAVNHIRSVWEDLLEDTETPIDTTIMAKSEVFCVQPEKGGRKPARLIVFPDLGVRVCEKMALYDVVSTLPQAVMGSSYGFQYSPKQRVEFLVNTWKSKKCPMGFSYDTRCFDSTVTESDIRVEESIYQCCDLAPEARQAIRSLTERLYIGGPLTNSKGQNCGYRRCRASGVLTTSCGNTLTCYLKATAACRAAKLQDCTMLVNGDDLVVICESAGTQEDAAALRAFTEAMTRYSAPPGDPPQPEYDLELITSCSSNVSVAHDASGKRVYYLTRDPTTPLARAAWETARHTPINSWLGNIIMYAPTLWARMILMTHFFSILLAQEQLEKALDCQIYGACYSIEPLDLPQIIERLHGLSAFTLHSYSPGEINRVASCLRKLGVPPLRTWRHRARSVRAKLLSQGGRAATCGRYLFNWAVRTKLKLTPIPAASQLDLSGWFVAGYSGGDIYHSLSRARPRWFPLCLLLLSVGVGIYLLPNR
# Tests used:
# [1] = target: HCV genotype 1b polymerase (strain J4) (Hepatitis C virus genotype 1b, UniProt O92972); assay: HCV polymerase assay; settings: 50 nM HCV genotype 1b polymerase, BrUTP incorporation ELISA, 60 min at 35°
# [2] = system: Huh-7 cells containing HCV Con1 subgenomic replicon (GS4.1 cells); assay: Cytotoxicity (CC50) reported with HCV replicon assay; settings: CC50 method not described
# [3] = system: HCV Con1 subgenomic replicon in Huh-7 cells (GS4.1 cells); assay: HCV replicon assay (NS4A ELISA); settings: 72 hr, NS4A protein ELISA
SMILES,IC50 [1] [µM],CC50 [2] [µM],EC50 [3] [µM]
CC(C)(C)CCn1[nH]c(O)c(C2=NP(=O)(O)c3cc(NS(C)(=O)=O)ccc3N2)c1=O,0.1 to 10,> 10,> 10
COP1(=O)N=C(c2c(O)n(C(C)(C)C)n(CCC(C)(C)C)c2=O)Nc2ccc(NS(C)(=O)=O)cc21 (stereo not drawn),< 0.1,> 10,0.1 to 10
CC(C)(C)CCn1c(=O)c(C2=NP(=O)(O)c3cc(NS(C)(=O)=O)ccc3N2)c(O)n1C(C)(C)C,< 0.1,> 10,0.1 to 10
